Measured values as given in ChEMBL document CHEMBL4834431, “Design of Dimeric Bile Acid Derivatives as Potent and Selective Human NTCP Inhibitors” (J Med Chem, 2021).
Calls of active or inactive are those of the source. The rule behind the calls is not given here.

Test system: Vesicular stomatitis virus
Test: Antiviral activity against VSV infected in human HepG2-NTCP cells assessed as reduction in HBeAg and HBsAg secretion at 1 uM incubated for 24 hrs followed by replacement with fresh medium and measured at day 5 post infection by ELISA

Row | SMILES | Activity
1 | C[C@H](CCCN(CC[C@@H](C)[C@H]1CC[C@H]2[C@@H]3[C@@H](O)C[C@@H]4C[C@H](O)CC[C@]4(C)[C@H]3CC[C@]12C)CCS(=O)(=O)O)[C@H]1CC[C@H]2[C@@H]3[C@@H](O)C[C@@H]4C[C@H](O)CC[C@]4(C)[C@H]3CC[C@]12C | inactive
2 | C[C@@H]1CCC(=O)NCCNC(=O)CC[C@@H](C)[C@H]2CC[C@H]3[C@@H]4[C@@H](O)C[C@@H]5C[C@@H](CC[C@]5(C)[C@H]4CC[C@]23C)NC(=O)CCCC(=O)N[C@@H]2CC[C@@]3(C)[C@@H](C2)C[C@H](O)[C@@H]2[C@@H]3CC[C@]3(C)[C@@H]1CC[C@@H]23 | inactive
3 | C[C@H](CCC(=O)NCCS(=O)(=O)O)[C@H]1CC[C@H]2[C@@H]3[C@@H](O)C[C@@H]4C[C@H](NC(=O)CCCC(=O)N[C@@H]5CC[C@@]6(C)[C@@H](C5)C[C@H](O)[C@@H]5[C@@H]6CC[C@]6(C)[C@@H]([C@H](C)CCC(=O)NCCS(=O)(=O)O)CC[C@@H]56)CC[C@]4(C)[C@H]3CC[C@]12C | inactive
4 | C[C@H](CCC(=O)NCCS(=O)(=O)O)[C@H]1CC[C@H]2[C@@H]3[C@@H](O)C[C@@H]4C[C@H](OC(=O)CCCC(=O)O[C@@H]5CC[C@@]6(C)[C@@H](C5)C[C@H](O)[C@@H]5[C@@H]6CC[C@]6(C)[C@@H]([C@H](C)CCC(=O)NCCS(=O)(=O)O)CC[C@@H]56)CC[C@]4(C)[C@H]3CC[C@]12C | inactive
5 | C[C@H](CCC(=O)NCCS(=O)(=O)O)[C@H]1CC[C@H]2[C@@H]3[C@@H](O)C[C@@H]4C[C@H](OCc5cn([C@@H]6CC[C@@]7(C)[C@@H](C6)C[C@H](O)[C@@H]6[C@@H]7CC[C@]7(C)[C@@H]([C@H](C)CCC(=O)NCCS(=O)(=O)O)CC[C@@H]67)nn5)CC[C@]4(C)[C@H]3CC[C@]12C | inactive
6 | C[C@H](CCC(=O)O[C@@H]1CC[C@@]2(C)[C@@H](C1)C[C@H](O)[C@@H]1[C@@H]2CC[C@]2(C)[C@@H]([C@H](C)CCC(=O)NCCS(=O)(=O)O)CC[C@@H]12)[C@H]1CC[C@H]2[C@@H]3[C@@H](O)C[C@@H]4C[C@H](O)CC[C@]4(C)[C@H]3CC[C@]12C | inactive
